## Share of PSTVd stem 3 variants by leaf site

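A pool of all variants was put on leaves of three Nicotiana benthamiana plants. Progeny were sequenced from the inoculated region (day 5), the margin of the inoculated leaf (day 10) and systemic leaves (day 12).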

The pool varies stem 3 of the PSTVd intermediate strain in the pattern GUGGUUCCGNANNCNN; wild type is GUGGUUCCGGAACCGC (upper and lower strand joined, each 5' to 3', the first 8 letters being the upper strand).

Values are reads per thousand in the sample; higher means more abundant, 0 means not found.
Each site shows the three plants.
"Pool" is the share in the plasmid pool used as inoculum, on the same scale.
The inoculated region was read from the minus strand, the other sites from the plus strand.
With 27,691-54,225 reads a sample, very low values are single reads.
The authors trace changes outside the varied positions to PCR and sequencing errors or to mutation in the plant; presence does not show that a variant is infectious alone.
For reference, wild type rose from 17.3 per thousand in the pool to 330, 345, 235 (inoculated region), 794, 766, 816 (leaf margin) and 830, 792, 869 (systemic leaves).

sequence | pool | inoculated region | leaf margin | systemic leaves
GUGGUUCCGUAGGCAU | 1.52 | 1.52 / 1.49 / 1.65 | 1.64 / 0.859 / 0.325 | 1.57 / 1.20 / 0.778
GUGGUUCCGUAGGCCA | 0.970 | 0.213 / 0.453 / 0.243 | 0 / 0 / 0 | 0 / 0 / 0
GUGGUUCCGUAGGCCC | 0.816 | 0.373 / 0.388 / 0.243 | 0.0283 / 0 / 0 | 0 / 0 / 0
GUGGUUCCGUAGGCCG | 2.62 | 1.36 / 1.94 / 1.65 | 0 / 0.0318 / 0 | 0.0186 / 0.129 / 0.219
GUGGUUCCGUAGGCCU | 0.908 | 0.800 / 0.841 / 0.919 | 0 / 0 / 0 | 0 / 0 / 0
GUGGUUCCGUAGGCGA | 0.939 | 0.533 / 0.496 / 0.567 | 0 / 0 / 0.0361 | 0 / 0 / 0.0243
GUGGUUCCGUAGGCGC | 0.877 | 0.267 / 0.323 / 0.513 | 0 / 0.0318 / 0 | 0 / 0 / 0
GUGGUUCCGUAGGCGG | 1.26 | 0.746 / 0.474 / 0.594 | 0.906 / 0 / 0.0722 | 0.466 / 0 / 0
GUGGUUCCGUAGGCGU | 0.800 | 0.773 / 0.582 / 0.865 | 0.0283 / 0 / 0.361 | 0 / 0 / 0
GUGGUUCCGUAGGCUA | 0.754 | 0.293 / 0.237 / 0.216 | 0 / 0.0318 / 0.0722 | 0 / 0 / 0
GUGGUUCCGUAGGCUC | 0.831 | 0.347 / 0.388 / 0.108 | 0 / 0 / 0 | 0 / 0 / 0
GUGGUUCCGUAGGCUG | 0.831 | 0.213 / 0.259 / 0.216 | 0 / 0 / 0.0361 | 0 / 0 / 0
GUGGUUCCGUAGGCUU | 1.00 | 0.533 / 0.604 / 1.03 | 0 / 1.05 / 0.506 | 0 / 0 / 0
GUGGUUCCGUAGUCAA | 0.939 | 0.880 / 0.798 / 0.838 | 0 / 1.11 / 0.217 | 0 / 0 / 0
GUGGUUCCGUAGUCAC | 0.908 | 0.746 / 0.647 / 0.838 | 0 / 1.15 / 0.361 | 0 / 0 / 0
GUGGUUCCGUAGUCAG | 0.800 | 0.640 / 0.496 / 0.919 | 0 / 1.34 / 0.397 | 0 / 0 / 0
GUGGUUCCGUAGUCAU | 0.923 | 0.586 / 0.561 / 0.892 | 1.47 / 1.24 / 0.433 | 1.42 / 1.33 / 0.803
GUGGUUCCGUAGUCCA | 1.83 | 1.76 / 1.29 / 1.59 | 0.0283 / 0.0318 / 0.0361 | 0.261 / 0.0184 / 0.146
GUGGUUCCGUAGUCCC | 1.71 | 0.986 / 1.14 / 1.13 | 0 / 0.0318 / 0.722 | 0 / 0 / 0
GUGGUUCCGUAGUCCG | 0.831 | 0.800 / 0.776 / 0.811 | 0 / 0 / 0 | 0 / 0 / 0
GUGGUUCCGUAGUCCU | 0.893 | 0.773 / 0.604 / 0.811 | 0 / 0.986 / 0.361 | 0 / 0.0184 / 0
GUGGUUCCGUAGUCGA | 1.39 | 1.15 / 1.06 / 1.19 | 0 / 0.0318 / 0.0361 | 0 / 0 / 0.0243
GUGGUUCCGUAGUCGC | 0.970 | 0.613 / 0.733 / 0.649 | 0.0283 / 1.24 / 0.397 | 0 / 0 / 0
GUGGUUCCGUAGUCGG | 0.908 | 0.880 / 0.561 / 0.730 | 0 / 0.0318 / 0 | 0 / 0 / 0
GUGGUUCCGUAGUCGU | 0.985 | 1.44 / 1.06 / 1.57 | 0.170 / 0 / 0.469 | 1.06 / 1.09 / 0.608
GUGGUUCCGUAGUCUA | 1.25 | 1.15 / 0.970 / 1.08 | 0 / 0.0318 / 0.0361 | 0 / 0 / 0
GUGGUUCCGUAGUCUC | 1.63 | 0.720 / 0.647 / 0.865 | 0.0283 / 0 / 0 | 0.0373 / 0.0184 / 0
GUGGUUCCGUAGUCUG | 1.11 | 1.47 / 0.992 / 1.46 | 0 / 0 / 0.0361 | 0.0186 / 0.0184 / 0.0243
GUGGUUCCGUAGUCUU | 0.939 | 1.04 / 0.712 / 0.838 | 0 / 1.15 / 0.325 | 0 / 0 / 0
GUGGUUCCGUAUACAA | 1.02 | 0.506 / 0.302 / 0.162 | 0 / 0.0318 / 0 | 0 / 0 / 0
GUGGUUCCGUAUACAC | 0.923 | 0.320 / 0.453 / 0.135 | 0 / 0 / 0 | 0 / 0 / 0
GUGGUUCCGUAUACAG | 1.03 | 0.586 / 0.431 / 0.351 | 0.0283 / 0 / 0 | 0 / 0 / 0
GUGGUUCCGUAUACAU | 1.54 | 0.906 / 1.14 / 1.22 | 0.0283 / 0 / 0.0361 | 0 / 0.0184 / 0
GUGGUUCCGUAUACCA | 0.954 | 0.560 / 0.367 / 0.297 | 0 / 0.0318 / 0.0361 | 0 / 0 / 0
GUGGUUCCGUAUACCC | 1.02 | 0.426 / 0.431 / 0.351 | 0 / 0 / 0 | 0.130 / 0 / 0
GUGGUUCCGUAUACCG | 0.800 | 0.400 / 0.367 / 0.162 | 0 / 0 / 0.108 | 0 / 0 / 0
GUGGUUCCGUAUACCU | 0.785 | 0.613 / 0.949 / 1.05 | 0.255 / 0.0318 / 0.397 | 0 / 0 / 0
GUGGUUCCGUAUACGA | 0.893 | 0.240 / 0.367 / 0.162 | 0 / 0 / 0 | 0 / 0 / 0
GUGGUUCCGUAUACGC | 1.06 | 0.453 / 0.561 / 0.730 | 0.0283 / 0.159 / 0.0361 | 0.186 / 0 / 0.0243
GUGGUUCCGUAUACGG | 0.939 | 0.400 / 0.431 / 0.243 | 0.0283 / 0 / 0 | 0 / 0 / 0
GUGGUUCCGUAUACGU | 0.877 | 0.347 / 0.302 / 0.297 | 0.0283 / 0 / 0 | 0 / 0 / 0
GUGGUUCCGUAUACUA | 1.00 | 0.506 / 0.259 / 0.216 | 0 / 0 / 0.0722 | 0 / 0 / 0
GUGGUUCCGUAUACUC | 1.06 | 0.400 / 0.388 / 0.270 | 0 / 0.0318 / 0.0361 | 0.0932 / 0 / 0
GUGGUUCCGUAUACUG | 0.954 | 0.267 / 0.367 / 0.351 | 0.0283 / 0.0318 / 0.0361 | 0 / 0.0184 / 0
GUGGUUCCGUAUACUU | 1.25 | 0.880 / 0.496 / 0.432 | 0 / 0.0318 / 0.0361 | 0.0559 / 0 / 0
GUGGUUCCGUAUCCAA | 0.662 | 0.506 / 0.388 / 0.351 | 0 / 0 / 0.0361 | 0 / 0 / 0
GUGGUUCCGUAUCCAC | 0.769 | 0.267 / 0.518 / 0.243 | 0 / 0 / 0 | 0 / 0 / 0
GUGGUUCCGUAUCCAG | 0.785 | 0.347 / 0.216 / 0.567 | 0 / 0.0318 / 0.0361 | 0 / 0 / 0
GUGGUUCCGUAUCCAU | 0.877 | 0.746 / 0.561 / 0.757 | 0 / 0.350 / 0 | 0 / 0 / 0
GUGGUUCCGUAUCCCA | 0.877 | 0.240 / 0.453 / 0.270 | 0 / 0.0318 / 0.0361 | 0 / 0 / 0
GUGGUUCCGUAUCCCC | 1.26 | 0.933 / 0.949 / 0.811 | 0.652 / 0.0318 / 0 | 0 / 0.0184 / 0
GUGGUUCCGUAUCCCG | 1.08 | 0.213 / 0.453 / 0.351 | 0.0567 / 0.0636 / 0 | 0 / 0 / 0
GUGGUUCCGUAUCCCU | 0.816 | 0.480 / 0.280 / 0.216 | 0 / 0 / 0 | 0 / 0 / 0
GUGGUUCCGUAUCCGA | 0.739 | 0.320 / 0.259 / 0.108 | 0 / 0 / 0 | 0 / 0 / 0
GUGGUUCCGUAUCCGC | 0.877 | 0.320 / 0.302 / 0.324 | 0 / 0.0318 / 0.0361 | 0 / 0.0369 / 0
GUGGUUCCGUAUCCGG | 0.831 | 0.400 / 0.259 / 0.189 | 0 / 0 / 0.0361 | 0 / 0 / 0
GUGGUUCCGUAUCCGU | 0.831 | 0.373 / 0.302 / 0.189 | 0 / 0.0318 / 0.0361 | 0 / 0 / 0
GUGGUUCCGUAUCCUA | 0.739 | 0.347 / 0.323 / 0.189 | 0 / 0 / 0.0722 | 0 / 0 / 0
GUGGUUCCGUAUCCUC | 0.923 | 0.320 / 0.323 / 0.0540 | 0 / 0 / 0.0361 | 0 / 0 / 0

A selection of 3 entries from above:

GUGGUUCCGUAGUCGU (pool 0.985): inoculated region 1.44 / 1.06 / 1.57; leaf margin 0.170 / 0 / 0.469; systemic leaves 1.06 / 1.09 / 0.608.
GUGGUUCCGUAGUCUA (pool 1.25): inoculated region 1.15 / 0.970 / 1.08; leaf margin 0 / 0.0318 / 0.0361; systemic leaves 0 / 0 / 0.
GUGGUUCCGUAUACGG (pool 0.939): inoculated region 0.400 / 0.431 / 0.243; leaf margin 0.0283 / 0 / 0; systemic leaves 0 / 0 / 0.

From the data files of Wu et al. 2024, doi:10.1371/journal.ppat.1012142.